PubChem BioAssay AID624099 – ICCB-Longwood | 2012

Purpose: 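Human genes that papillomavirus E2 requires to repress the HPV18 LCR promoter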 (primary screen)
System: human C33A cervical carcinoma cells (HPV-negative) stably expressing BPV1 E2 and an HPV18 LCR luciferase reporter
Reagent: siRNA pool against human genes, 40 nM
Timing: 72 h
Measured: 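Per-well luciferase luminescence, z-scored on each plate against the plate mean and SD with control wells left out, then averaged across three replicate plates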
Reading the numbers: mean z-score and z-score: higher = stronger reporter signal, weaker E2 silencing
Call rule: 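Hit if mean z-score reaches 2 and two or more of three replicate z-scores also reach 2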
Here is an unselected part of about 21,000 deposited reagents. 497 of all reagents (2.4%) count as active. 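Higher z means weaker E2 silencing; only reporter increases were scored, and knock-downs that hurt cell survival may mask genuine repressor factors.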 Reagents against one gene are numbered here. No sequences are given here.

gene knocked down | pool no. | mean z-score | z-score, replicate A | z-score, replicate B | z-score, replicate C | activity call
APOBEC3F (apolipoprotein B mRNA editing enzyme catalytic subunit 3F) | 1 | 0.16 | 0.18 | 0.26 | 0.03 | inactive
DKK4 (dickkopf Wnt signaling pathway inhibitor 4) | 1 | -0.14 | 0.21 | -0.14 | -0.5 | inactive
ZNF563 (zinc finger protein 563) | 1 | -0.15 | -0.34 | -0.11 | 0.01 | inactive
PLRG1 (pleiotropic regulator 1) | 1 | 0.69 | 0.77 | 0.97 | 0.32 | inactive
MCEMP1 (mast cell expressed membrane protein 1) | 1 | -1.41 | -1.22 | -1.07 | -1.94 | inactive
GRN (granulin precursor) | 1 | 1.03 | 0.82 | 1.11 | 1.14 | inactive
NR5A2 (nuclear receptor subfamily 5 group A member 2) | 1 | -0.33 | -0.03 | -0.48 | -0.47 | inactive
AGXT (alanine--glyoxylate aminotransferase) | 1 | -0.18 | -0.26 | -0.09 | -0.2 | inactive
TRIP11 (thyroid hormone receptor interactor 11) | 1 | 1.46 | 1.7 | 1.39 | 1.29 | inactive
LEMD2 (LEM domain nuclear envelope protein 2) | 1 | 0.03 | -0.14 | -0.36 | 0.58 | inactive
LINC03124 (long independently transcribed non-coding RNA 3124) | 1 | -0.67 | -0.64 | -0.78 | -0.6 | inactive
SARS2 (seryl-tRNA synthetase 2, mitochondrial) | 1 | 0.94 | 0.65 | 0.9 | 1.28 | inactive
RPL35P7 (ribosomal protein L35 pseudogene 7) | 1 | -1.44 | -0.81 | -1.46 | -2.06 | inactive
CST6 (cystatin E/M) | 1 | 0.82 | 1.26 | 0.61 | 0.58 | inactive
SLC45A1 | 1 | -0.61 | -0.46 | -0.95 | -0.44 | inactive
SS18 (SS18 subunit of BAF chromatin remodeling complex) | 1 | -1.23 | -1.25 | -1.47 | -0.99 | inactive
ZNF852 (zinc finger protein 852) | 1 | 0.17 | 0.18 | 0.3 | 0.04 | inactive
PPM1H (protein phosphatase, Mg2+/Mn2+ dependent 1H) | 1 | -0.06 | 0.12 | -0.09 | -0.2 | inactive
QTRT1 (queuine tRNA-ribosyltransferase catalytic subunit 1) | 1 | 0.32 | 0.01 | 0.72 | 0.25 | inactive
KCMF1 (potassium channel modulatory factor 1) | 1 | 1.04 | 0.97 | 1.18 | 0.97 | inactive
IQCF1 (IQ motif containing F1) | 1 | -1.91 | -1.84 | -1.94 | -1.93 | inactive
CCSER1 (coiled-coil serine rich protein 1) | 1 | -0.85 | -1.02 | -1 | -0.53 | inactive
CCSER1 (coiled-coil serine rich protein 1) | 2 | -0.52 | -0.61 | -0.42 | -0.53 | inactive
EIF2AK2 (eukaryotic translation initiation factor 2 alpha kinase 2) | 1 | 0.55 | 0.04 | 0.95 | 0.66 | inactive
RFK (riboflavin kinase) | 1 | 0.83 | 0.87 | 0.8 | 0.81 | inactive
LINC02209 (long independently transcribed non-coding RNA 2209) | 1 | -0.88 | -0.61 | -1.01 | -1.03 | inactive
IGSF23 (immunoglobulin superfamily member 23) | 1 | -0.44 | -0.85 | -0.31 | -0.15 | inactive
SERPINB13 (serpin family B member 13) | 1 | 0.76 | 0.84 | 0.53 | 0.91 | inactive
ZNF582 (zinc finger protein 582) | 1 | -0.42 | -0.24 | -0.55 | -0.47 | inactive
SERTAD2 (SERTA domain containing 2) | 1 | -0.73 | -0.16 | -0.9 | -1.13 | inactive
CALD1 (caldesmon 1) | 1 | 0.15 | -0.19 | 0.37 | 0.27 | inactive
NUP62CL (nucleoporin 62 C-terminal like) | 1 | -0.31 | -0.15 | -0.45 | -0.33 | inactive
PELO (pelota mRNA surveillance and ribosome rescue factor) | 1 | 1.59 | 1.31 | 1.68 | 1.76 | inactive
LOC389953 (retired record) | 1 | -0.76 | -0.65 | -0.58 | -1.07 | inactive
VAPA (VAMP associated protein A) | 1 | 0.88 | 0.73 | 0.86 | 1.05 | inactive
TEX36 (testis expressed 36) | 1 | 0.75 | 0.99 | 0.72 | 0.55 | inactive
XAGE2 (X antigen family member 2) | 1 | 0.72 | 0.87 | 0.68 | 0.61 | inactive
KHSRP (KH-type splicing regulatory protein) | 1 | -0.99 | -0.46 | -1.17 | -1.33 | inactive
GKN2 (gastrokine 2) | 1 | -1.15 | -0.92 | -1.34 | -1.18 | inactive
WRAP73 (WD repeat containing, antisense to TP73) | 1 | 0.97 | 0.99 | 1.15 | 0.78 | inactive
GSKIP (GSK3B interacting protein) | 1 | -0.76 | -0.39 | -0.87 | -1.01 | inactive
DPY19L2 (dpy-19 like 2) | 1 | 0.14 | -0.37 | 0.53 | 0.27 | inactive
ZFP30 (ZFP30 zinc finger protein) | 1 | -0.22 | -0.5 | -0.04 | -0.11 | inactive
WBP1L (WW domain binding protein 1 like) | 1 | -1.25 | -1.44 | -1.19 | -1.12 | inactive
CENPH (centromere protein H) | 1 | -0.35 | -0.51 | -0.43 | -0.11 | inactive
GJA10 (gap junction protein alpha 10) | 1 | 0.73 | 0.85 | 0.61 | 0.74 | inactive
ZNF16 (zinc finger protein 16) | 1 | -1.35 | -1.56 | -1.09 | -1.41 | inactive
RNF4 (ring finger protein 4) | 1 | 0.16 | 0.32 | 0.05 | 0.1 | inactive
ALDH4A1 (aldehyde dehydrogenase 4 family member A1) | 1 | 0.12 | 0.45 | 0.1 | -0.2 | inactive
NUDT6 (nudix hydrolase 6) | 1 | 0.59 | 0.69 | 0.44 | 0.63 | inactive
CCDC110 (coiled-coil domain containing 110) | 1 | 0.22 | 0.34 | 0.22 | 0.12 | inactive
TAS2R4 (taste 2 receptor member 4) | 1 | 2.63 | 2.87 | 2.29 | 2.72 | active
CASD1 (CAS1 domain sialic acid O acetyltransferase 1) | 1 | 0.26 | 0.77 | 0.23 | -0.23 | inactive
YTHDF2 (YTH N6-methyladenosine RNA binding protein F2) | 1 | -0.71 | -0.33 | -0.91 | -0.9 | inactive
ZNF667 (zinc finger protein 667) | 1 | 0.39 | -0.35 | 0.33 | 1.2 | inactive
ACTR6 (actin related protein 6) | 1 | 0.72 | 0.73 | 0.88 | 0.54 | inactive
PITX2 (paired like homeodomain 2) | 1 | 1.76 | 2.19 | 1.65 | 1.44 | inactive

Limited to “mean z-score”, for 5 of the entries above:
CENPH (centromere protein H): -0.35
GJA10 (gap junction protein alpha 10): 0.73
ZNF16 (zinc finger protein 16): -1.35
RNF4 (ring finger protein 4): 0.16
ALDH4A1 (aldehyde dehydrogenase 4 family member A1): 0.12
